Source: PubChem BioAssay AID624099 (ICCB-Longwood, 2012)

- Assay: 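Knock-downs relieving repression by E2 of an HPV18 LCR luciferase reporter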 (primary screen)
- System: human C33A cervical carcinoma cells (HPV-negative) stably expressing BPV1 E2 and an HPV18 LCR luciferase reporter
- Reagent: siRNA pool against human genes, 40 nM
- Timing: 72 h
- Measured: 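Per-well luciferase luminescence, z-scored on each plate against the plate mean and SD with control wells left out, then averaged across three replicate plates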
- Direction: mean z-score and z-score: higher = stronger reporter signal, weaker E2 silencing
- Rule for the call: 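Hit if mean z-score reaches 2 and two or more of three replicate z-scores also reach 2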
The deposit covers about 21,000 reagents; shown is an unselected part. 497 of them (2.4%) count as active. 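Higher z means weaker E2 silencing; only reporter increases were scored, and knock-downs that hurt cell survival may mask genuine repressor factors.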 Entries without a mark were called inactive. No sequences are given here.

ACYP2 showed mean z-score 1.98; z-score, replicate A = 2.34; z-score, replicate B = 1.95; z-score, replicate C = 1.65.
With knock-down of PARP8 the results were mean z-score -0.05; z-score, replicate A = -0.01; z-score, replicate B = -0.32; z-score, replicate C = 0.17.
After knock-down of NR1H2, the record shows mean z-score -1.38; z-score, replicate A = -1.44; z-score, replicate B = -1.27; z-score, replicate C = -1.41.
Against ZNF382, the entry reads mean z-score 0.15; z-score, replicate A = 0.01; z-score, replicate B = 0.15; z-score, replicate C = 0.3.
Against WBP1, the entry reads mean z-score 1.63; z-score, replicate A = 1.7; z-score, replicate B = 1.4; z-score, replicate C = 1.8.
Against GID4 the deposit lists mean z-score 0.63; z-score, replicate A = 0.66; z-score, replicate B = 0.67; z-score, replicate C = 0.57.
FNDC4 showed mean z-score 0.04; z-score, replicate A = 0.35; z-score, replicate B = -0.04; z-score, replicate C = -0.17.

3 entries from above, ordered by “z-score, replicate A”, lowest first.
FNDC4 — mean z-score: 0.04; z-score, replicate A: 0.35; z-score, replicate B: -0.04; z-score, replicate C: -0.17
GID4 — mean z-score: 0.63; z-score, replicate A: 0.66; z-score, replicate B: 0.67; z-score, replicate C: 0.57
WBP1 — mean z-score: 1.63; z-score, replicate A: 1.7; z-score, replicate B: 1.4; z-score, replicate C: 1.8

More entries follow.
Silencing of NFAT5 resulted in: mean z-score 0.11; z-score, replicate A = -0.16; z-score, replicate B = 0.18; z-score, replicate C = 0.3.
PROSER2 gave mean z-score 0.66; z-score, replicate A = 0.31; z-score, replicate B = 0.85; z-score, replicate C = 0.81.
Knock-down of ESD resulted in: mean z-score 0.1; z-score, replicate A = 0.23; z-score, replicate B = 0.02; z-score, replicate C = 0.05.
Depletion of MTREX came out at: mean z-score -0.84; z-score, replicate A = -0.86; z-score, replicate B = -1.04; z-score, replicate C = -0.61.
SEMA3B showed mean z-score 0.13; z-score, replicate A = 0.23; z-score, replicate B = 0.05; z-score, replicate C = 0.12.
After knock-down of CAAP1, the screen gave mean z-score 0.38; z-score, replicate A = 0.74; z-score, replicate B = 0.13; z-score, replicate C = 0.27.
Against CRHR2, the entry reads mean z-score -0.23; z-score, replicate A = -0.42; z-score, replicate B = -0.27; z-score, replicate C = 0.01.
With knock-down of LAMA3, the record shows mean z-score -0.63; z-score, replicate A = -0.75; z-score, replicate B = -0.6; z-score, replicate C = -0.53.
After knock-down of DNAI3, the screen gave mean z-score -0.67; z-score, replicate A = -0.57; z-score, replicate B = -0.76; z-score, replicate C = -0.69.
Silencing of MORC4 resulted in: mean z-score -0.41; z-score, replicate A = -0.8; z-score, replicate B = -0.46; z-score, replicate C = 0.04.
For BCR, the entry reads mean z-score 0.03; z-score, replicate A = -0.15; z-score, replicate B = 0.3; z-score, replicate C = -0.06.
Against TRIM32, the entry reads mean z-score 0.64; z-score, replicate A = 0.67; z-score, replicate B = 0.65; z-score, replicate C = 0.6.
Depletion of CCL19 came out at: mean z-score 1.17; z-score, replicate A = 1.25; z-score, replicate B = 1.18; z-score, replicate C = 1.07.
After knock-down of LOC389777 (retired record), the record shows mean z-score 1.16; z-score, replicate A = 1.01; z-score, replicate B = 1.17; z-score, replicate C = 1.3.
